{"source": "patent US10570176B2", "about": "(priority 2015, dated 2020)", "assay": "peptide synthesis", "settings": "whole synthesis, HPLC (Agela C18 column)", "note": "Non-standard residues stand in square brackets, D forms with d. No end group written: not given here.", "data": [{"substance": "G[dS][dA][dV][dM][dF][dS][dS][dK][dE][dR]G", "values": [{"measurement": "purity (crude or final not stated)", "value": 97.2, "unit": "%"}]}]}
